Measured values reported in ChEMBL document CHEMBL1828605, “Synthesis, antiviral activity, cytotoxicity and cellular pharmacology of l-3'-azido-2',3'-dideoxypurine nucleosides” (Eur J Med Chem, 2011).

Each compound was assayed against Human immunodeficiency virus type 1 reverse transcriptase (Human immunodeficiency virus 1) (UniProt Q72547) (assay: Ratio Kpol to Kd for wild type HIV 1 reverse transcriptase).
In short: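 Pre-steady-state single-turnover incorporation by purified WT HIV-1 RT (200 nM, final), pre-incubated with 20 nM T/P substrate, then mixed with nucleotide at varying concentrations plus metal ions. Reaction at 37 °C in 50 mM Tris-HCl pH 7.5, 50 mM KCl, 10 mM MgCl₂. Aliquots quenched in gel loading buffer at 1-60 min. 20mer→21mer conversion quantified on gel. k_obs from burst fit, k_pol and K_d from hyperbolic fit, efficiency taken as k_pol/K_d.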

Row | SMILES | Ratio [µM⁻¹ min⁻¹]
1 | Cc1cn([C@@H]2O[C@H](COP(=O)(O)OP(=O)(O)OP(=O)(O)O)[C@@H](O)[C@H]2O)c(=O)[nH]c1=O [THYMIDINE_TRIPHOSPHATE] | 231
2 | [N-]=[N+]=N[C@@H]1C[C@@H](n2cnc3c(O)nc(N)nc32)O[C@H]1COP(=O)(O)OP(=O)(O)OP(=O)(O)O | 0.458
3 | Nc1nc2c(ncn2[C@H]2C[C@H](O)[C@@H](COP(=O)(O)OP(=O)(O)OP(=O)(O)O)O2)c(=O)[nH]1 | 108
